Measured values: the supplement of paper PMC9931576
Human monoclonal antibodies against the spike receptor-binding domain (heavy:light variable regions). IC50 against pseudoviruses bearing the spike of naturally observed variants; lower = stronger; >10 µg/ml means not reached at the top dose. No active / inactive call. The stated detection limit is 0.0005 µg/ml; values near or below 0.001 µg/ml lie at the floor of the assay.

Legend:
Experiment in all cases: pseudovirus neutralization IC50; higher = weaker neutralization
[1] = target: SARS-CoV-2 Omicron BA.1 spike pseudovirus
Description: (§1)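 Single-round VSV luciferase pseudovirus mixed with antibody dilutions for 1 h and put on Huh-7 cells for about a day; IC50 from the dose curve.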

[2] = target: SARS-CoV-2 Omicron BA.2 spike pseudovirus
Description: as §1

[3] = target: SARS-CoV-2 Omicron BA.2.75 spike pseudovirus
Description: as §1

[4] = target: SARS-CoV-2 Omicron BA.5 spike pseudovirus
Description: as §1

[5] = target: SARS-CoV-2 Omicron BQ.1.1 spike pseudovirus
Description: as §1

[6] = target: SARS-CoV-2 Omicron XBB spike pseudovirus
Description: as §1

[7] = target: SARS-CoV-2 early D614G spike pseudovirus
Description: as §1

B1: BD56-1651 (protein)
chain 1: EIQLVQSGAEVRKPGESLKISCKGSGYSFTSYWIGWVRLLPGKGLEWMGTIYPRDSHTRYSPSFQGQVTISADKSISTAYLQWSSLKASDTATYYCARRGVIVPTAMFQYFDLWGRGTLVTVSS
chain 2: DIVMTQTPLSLPVTPGEPASISCRSSQSLLDSDDGNTYLDWYLQKPGQSPQLLIYSLSYRASGVPDRFSGSGSGTDFTLKISRVEAEDVGIYYCMQRIEFPFTFGPGTKVDIK
pseudovirus neutralization IC50 [1]: > 10 µg/mL | pseudovirus neutralization IC50 [2]: > 10 µg/mL | pseudovirus neutralization IC50 [3]: > 10 µg/mL | pseudovirus neutralization IC50 [4]: > 10 µg/mL | pseudovirus neutralization IC50 [5]: > 10 µg/mL | pseudovirus neutralization IC50 [6]: > 10 µg/mL | pseudovirus neutralization IC50 [7]: 0.0356 µg/mL

B2: BD56-1653 (protein)
chain 1: EVQLLESGGGLVQPGGSLGLSCAASGFRFSSYAMSWVRQAPGKGLEWLSVIYSGGAGTYYADSVKGRFTISRDDSKNTLFVQMNSLRAEDTAVYYCARHKAVVGTYYYYSMDVWGQGTSVTVSS
chain 2: SYVLTQPPSVSVAPGQTARFTCGGNNIGLNSVHWYQQKSGQAPVLVVYDDSDRPSGIPERFSGSNSGNTATLTINRVEAGDEADYYCQVWDGRSDHVVFGGGTKLTVL
pseudovirus neutralization IC50 [1]: > 10 µg/mL | pseudovirus neutralization IC50 [2]: > 10 µg/mL | pseudovirus neutralization IC50 [3]: > 10 µg/mL | pseudovirus neutralization IC50 [4]: > 10 µg/mL | pseudovirus neutralization IC50 [5]: > 10 µg/mL | pseudovirus neutralization IC50 [6]: > 10 µg/mL | pseudovirus neutralization IC50 [7]: > 10 µg/mL

B3: BD56-1660 (protein)
chain 1: QVQLVESGGGVVQPGRSLRLSCAASGFTFNSYVMHWVRQAPGKGLEWVALISYDGSNKYYADSVKGRFTISRDNFKHTLYLQMNSLRAEDTAVYYCAREFDVDSGMVNNDAYGLDVWGQGTTVTVSS
chain 2: DIQMTQSPSSLSASVGDRVTITCRASQSISSYLNWYQQKPGKAPKLLIYFALSLQSGVPSRFSGSGSGTDFTLTISSLQPDDLATYYCQQSYSTPPLTFGGGTKVEIK
pseudovirus neutralization IC50 [1]: > 10 µg/mL | pseudovirus neutralization IC50 [2]: > 10 µg/mL | pseudovirus neutralization IC50 [3]: > 10 µg/mL | pseudovirus neutralization IC50 [4]: > 10 µg/mL | pseudovirus neutralization IC50 [5]: > 10 µg/mL | pseudovirus neutralization IC50 [6]: > 10 µg/mL | pseudovirus neutralization IC50 [7]: 4.94 µg/mL

B4: BD56-1641 (protein)
chain 1: DVQLVESAGGLVQPGGSLRLSCAASGFTFSDYSMNWVRQAPGKGLEWVSFISSSSHTIYYADSVKGRFTISRDNAKNSLFLQMNSLRNEDTAVYYCARADLWGSDILTGYSTLLDYWGQGTLVTVSS
chain 2: EIVLTQSPGTLSLSPGERATLSCRASQSVSSTYIAWYQQKPGQAPRLLIYGASSRAAGIPDRFSGSGSGTDFTLTISTLEPEDFAVYYCQQCGSSPATFGQGTKVEIK
pseudovirus neutralization IC50 [1]: > 10 µg/mL | pseudovirus neutralization IC50 [2]: > 10 µg/mL | pseudovirus neutralization IC50 [3]: > 10 µg/mL | pseudovirus neutralization IC50 [4]: > 10 µg/mL | pseudovirus neutralization IC50 [5]: > 10 µg/mL | pseudovirus neutralization IC50 [6]: > 10 µg/mL | pseudovirus neutralization IC50 [7]: 1.36 µg/mL

B5: BD56-1639 (protein)
chain 1: EVQLVQSGAEVKKPGDSLKISCKGSGYSFISYWIGWVRQVPGKGLEWIGIIYPGDSDSTYSPSFQGQVTMSADKSISTAFLQWSSLRASDTAMYYCARRSSSWNEFDFWGQGTLVTVSS
chain 2: DIQMTQSPSSLSASVGDRVTITCRASQSISSYLNWFQQKPGKVPKLLIYAASSLQSGVPSRFSGSGSGTDFALTISSLQPEDFATYYCQQSDSTPYTFGQGTKLEIK
pseudovirus neutralization IC50 [1]: > 10 µg/mL | pseudovirus neutralization IC50 [2]: > 10 µg/mL | pseudovirus neutralization IC50 [3]: > 10 µg/mL | pseudovirus neutralization IC50 [4]: > 10 µg/mL | pseudovirus neutralization IC50 [5]: > 10 µg/mL | pseudovirus neutralization IC50 [6]: > 10 µg/mL | pseudovirus neutralization IC50 [7]: > 10 µg/mL

B6: BD56-1646 (protein)
chain 1: QVQLAQSGPEVRKPGASVKVSCKASGYTFTSYGINWVRQAPGQGLEWMGWISTYSGDTNYAQKFQGRVTMTTDTSTSTVFMELRSLRADDTAFYYCARNEPGYCGGGSCYWLDPWGQGTLVTVSS
chain 2: EIVMTQSPATLSVSPGERATLSCWASQSVSNNLAWYQQKPGQAPRLLLYGASTRATGIPARFSGSGSGTDFTLTISSLQSEDFAVYFCLQYDNWPPVFTFGPGTKVDIK
pseudovirus neutralization IC50 [1]: 1.08 µg/mL | pseudovirus neutralization IC50 [2]: 2.74 µg/mL | pseudovirus neutralization IC50 [3]: 1.19 µg/mL | pseudovirus neutralization IC50 [4]: 0.837 µg/mL | pseudovirus neutralization IC50 [5]: 2.72 µg/mL | pseudovirus neutralization IC50 [6]: 2.98 µg/mL | pseudovirus neutralization IC50 [7]: 3.05 µg/mL

B7: BD56-1662 (protein)
chain 1: EQMQVEQSGPEVKKPGTSVKVSCKASGFTFPISSVQWLRQARGQHLEWIGWIVIGTGDTNYAQNFKERVTIIADMSSGTVYMELSSLRSEDTAVYYCAAPSCNRTLCFDGFDLWGQGTMVSVSS
chain 2: EIVLTQSPGTLSLSPGERATLSCRASQSVSSSYLAWYQQRLGQAPRLLIYGASSRATGIPDRFSGGGSGTDFTLTISRLEPEDFAVYHCQQYSNSPWTFGRGTKVEIK
pseudovirus neutralization IC50 [1]: 0.000415 µg/mL | pseudovirus neutralization IC50 [2]: 0.000749 µg/mL | pseudovirus neutralization IC50 [3]: 0.00127 µg/mL | pseudovirus neutralization IC50 [4]: 0.0266 µg/mL | pseudovirus neutralization IC50 [5]: 0.26 µg/mL | pseudovirus neutralization IC50 [6]: > 10 µg/mL | pseudovirus neutralization IC50 [7]: 0.00176 µg/mL

B8: BD56-1661 (protein)
chain 1: EVQLVESGGGLVQPGRSLRLSCAASGFPFDDYAMHWVRQAPGKGLEWVSGISWNGGVIGYADSVKGRCIISRDNAKNSLYLHMNSLRAEDTALFYCVKDMSGGDYQHYFDHWGQGTLVTVSS
chain 2: SYVLTQPPSVSVAPGKTARITCGGNYIGSKSVHWYQQRPGQAPVLVVYDDSDRPSGIPERLSGSKSGNTATLTISRVEAGDEADYYCQMWDSSSDLYVFGTGTKVTVL
pseudovirus neutralization IC50 [1]: 0.00911 µg/mL | pseudovirus neutralization IC50 [2]: 0.00793 µg/mL | pseudovirus neutralization IC50 [3]: 0.00342 µg/mL | pseudovirus neutralization IC50 [4]: 0.179 µg/mL | pseudovirus neutralization IC50 [5]: > 10 µg/mL | pseudovirus neutralization IC50 [6]: 4.38 µg/mL | pseudovirus neutralization IC50 [7]: 0.0387 µg/mL

B9: BD56-1636 (protein)
chain 1: EVQLVESGRGLVQPGGSLRLSCAASGFTFSSYDMHWVRQATGRGLEWVSAIGTAGDTYYRDSVKGRFTISRDDAKNSLYLQMKSLRAGDTAVYYCARGGWGPLASWYFDLWGRGTLVTVSS
chain 2: DIQMTQSPSSLSASVGDRVTITCRSSQSISKFLNWYQYKPGTAPKLLIYDASSLHSGVPSRFSGSGSGTDFTLTIGSLQPEDFAIYYCQQTYTMPPPTFGQGTRLEIK
pseudovirus neutralization IC50 [1]: > 10 µg/mL | pseudovirus neutralization IC50 [2]: > 10 µg/mL | pseudovirus neutralization IC50 [3]: > 10 µg/mL | pseudovirus neutralization IC50 [4]: > 10 µg/mL | pseudovirus neutralization IC50 [5]: > 10 µg/mL | pseudovirus neutralization IC50 [6]: > 10 µg/mL | pseudovirus neutralization IC50 [7]: 6.56 µg/mL

B10: BD56-1663 (protein)
chain 1: QVQLVQSGAEVKKPGSSVRVSCKASGGTFSSFPISWVRQAPGQGLEWMGRIIPILGVPNYAQRFQGRVTITADKSTSTAYMELSSLTSADTAVYYCARARGYSGSGSSYYFDYWGQGTLVTVSS
chain 2: QSVLTQPPSVSGAPGQRVTISCTGSDSNIGAGYDVHWYQQLPGTAPKLLMYANTNRPSGVPARFSGSKSGTSASLAITGLQAEDEADYYCQSYDSSLSDSVFGGGTKLTVL
pseudovirus neutralization IC50 [1]: 0.0346 µg/mL | pseudovirus neutralization IC50 [2]: 0.0203 µg/mL | pseudovirus neutralization IC50 [3]: 0.011 µg/mL | pseudovirus neutralization IC50 [4]: 0.928 µg/mL | pseudovirus neutralization IC50 [5]: > 10 µg/mL | pseudovirus neutralization IC50 [6]: 4.06 µg/mL | pseudovirus neutralization IC50 [7]: 0.315 µg/mL

B11: BD56-1645 (protein)
chain 1: QVQLVQSGAEVKKPGSSVKVSCKASGGTFNSYGIAWVRQAPGRGLEWMGGVIPMFETTNYAQKFQGRVTITADESTSTAYMELTSLRSEDTAVYYCATDRPLLPAGRSPKSGYFDSWGQGTLVTVSS
chain 2: EIVLTQSPGTLSLSPGERASLSCRASQFVSSTYLAWYQQKPSQAPRLLIYGASSRATGIPDRFSGSGSGTDFTLTISRLEPEDFAVYYCQQYGNSFPITFGQGTRLEIK
pseudovirus neutralization IC50 [1]: > 10 µg/mL | pseudovirus neutralization IC50 [2]: > 10 µg/mL | pseudovirus neutralization IC50 [3]: > 10 µg/mL | pseudovirus neutralization IC50 [4]: > 10 µg/mL | pseudovirus neutralization IC50 [5]: > 10 µg/mL | pseudovirus neutralization IC50 [6]: > 10 µg/mL | pseudovirus neutralization IC50 [7]: > 10 µg/mL

B12: BD56-1656 (protein)
chain 1: QVQLVESGGGVVQPGRSLRLSCVASGFTFRTYGMHWVRQAPGKGLEWVASIWYDGSNEDYADSAKGRFTVSRDNPNHTLFLQLNSLRVEDTAIYYCAKDPNPYASGWFSFHFDYWGQGSLVTVSS
chain 2: QSVLTQPPSVSGAPGQRVTISCTGSSSNIGASYDVHWYQQLPGTAPKLLIYDNSNRPSGVPDRFSGSKSDTSASLAITGLQAEDEADYYCQSYDTSLGRVFGGGTKLTVL
pseudovirus neutralization IC50 [1]: > 10 µg/mL | pseudovirus neutralization IC50 [2]: > 10 µg/mL | pseudovirus neutralization IC50 [3]: > 10 µg/mL | pseudovirus neutralization IC50 [4]: > 10 µg/mL | pseudovirus neutralization IC50 [5]: > 10 µg/mL | pseudovirus neutralization IC50 [6]: > 10 µg/mL | pseudovirus neutralization IC50 [7]: > 10 µg/mL
